# Potato spindle tuber viroid, loop 15: variant abundance in plants

Reference: Wu et al. 2024, doi:10.1371/journal.ppat.1012142.

Region: loop 15 of PSTVd (intermediate strain), upper and lower strand joined, each 5' to 3', the first 7 letters being the upper strand, closing pairs included. Wild type: GGAAACCGCUACUAC. Varied positions (N): GGAAACCGNNNNNNC.

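A pool of all variants was put on leaves of three Nicotiana benthamiana plants. Samples came from the inoculated region at 5 days, the leaf margin at 10 and upper systemic leaves at 12.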

Values are reads per thousand in the sample; higher means more abundant, 0 means not found.
Each value is the mean of three plants.
"Pool" is the share in the plasmid pool used as inoculum, on the same scale.
The inoculated region was read from the minus strand, the other sites from the plus strand.

- GGAAACCGCACUCUC (pool 0.240) = inoculated region 0.200; leaf margin 0.00668; systemic leaves 0.00537
- GGAAACCGACACUUC (pool 0.256) = inoculated region 0.325; leaf margin 0.0954; systemic leaves 0.0490
- GGAAACCGUUGUCGC (pool 0.192) = inoculated region 0.0770; leaf margin 0; systemic leaves 0.00537
- GGAAACCGGCAGGAC (pool 0.272) = inoculated region 0.351; leaf margin 0.0805; systemic leaves 0.0268
- GGAAACCGCCCCGGC (pool 0.288) = inoculated region 0.0914; leaf margin 0; systemic leaves 0
- GGAAACCGAUUUAGC (pool 0.304) = inoculated region 0.112; leaf margin 0.0128; systemic leaves 0
- GGAAACCGGAAGUUC (pool 0.208) = inoculated region 0.362; leaf margin 0.0806; systemic leaves 0.0815
- GGAAACCGACAGCAC (pool 0.160) = inoculated region 0.278; leaf margin 0.131; systemic leaves 0.0215
- GGAAACCGACGUCAC (pool 0.336) = inoculated region 0.0886; leaf margin 0; systemic leaves 0
- GGAAACCGACUGGGC (pool 0.256) = inoculated region 0.0940; leaf margin 0; systemic leaves 0
- GGAAACCGCACCGUC (pool 0.240) = inoculated region 0.0614; leaf margin 0.0182; systemic leaves 0
- GGAAACCGACCCCUC (pool 0.208) = inoculated region 0.214; leaf margin 0; systemic leaves 0.00537
- GGAAACCGUCGCUCC (pool 0.288) = inoculated region 0.0812; leaf margin 0.00668; systemic leaves 0
- GGAAACCGCCGGAGC (pool 0.320) = inoculated region 0.0923; leaf margin 0; systemic leaves 0
- GGAAACCGCCGAGUC (pool 0.224) = inoculated region 0.0939; leaf margin 0.0121; systemic leaves 0.00760
- GGAAACCGUUACAUC (pool 0.288) = inoculated region 0.331; leaf margin 0.131; systemic leaves 0.0413
- GGAAACCGACCUGUC (pool 0.192) = inoculated region 0.0915; leaf margin 0; systemic leaves 0
- GGAAACCGAGAGAAC (pool 0.224) = inoculated region 0.304; leaf margin 0.0835; systemic leaves 0.0587
- GGAAACCGUAUCACC (pool 0.240) = inoculated region 0.0931; leaf margin 0; systemic leaves 0.00537
- GGAAACCGCAUCGGC (pool 0.224) = inoculated region 0.0742; leaf margin 0; systemic leaves 0
- GGAAACCGGGAAUGC (pool 0.208) = inoculated region 0.124; leaf margin 0.0295; systemic leaves 0.00537
- GGAAACCGGUGGCAC (pool 0.240) = inoculated region 0.0867; leaf margin 0; systemic leaves 0
- GGAAACCGCCCAGGC (pool 0.208) = inoculated region 0.187; leaf margin 0.0262; systemic leaves 0
- GGAAACCGUUGAGCC (pool 0.208) = inoculated region 0.0668; leaf margin 0.0134; systemic leaves 0.0107
- GGAAACCGAGAGCAC (pool 0.240) = inoculated region 0.322; leaf margin 0.0854; systemic leaves 0.0767
- GGAAACCGGUUGAUC (pool 0.240) = inoculated region 0.0987; leaf margin 0.0121; systemic leaves 0
- GGAAACCGGCGGCUC (pool 0.240) = inoculated region 0.167; leaf margin 0.0208; systemic leaves 0
- GGAAACCGCACGCCC (pool 0.224) = inoculated region 0.107; leaf margin 0.0262; systemic leaves 0

2 of these entries, quoted again:

GGAAACCGGCAGGAC (pool 0.272) read inoculated region 0.351; leaf margin 0.0805; systemic leaves 0.0268.
GGAAACCGUAUCACC (pool 0.240) read inoculated region 0.0931; leaf margin 0; systemic leaves 0.00537.

Wild type was 33.9 per thousand in the pool and the most common sequence in every sample (inoculated region 202, 200, 159; leaf margin 724, 746, 710; systemic leaves 856, 883, 880).
The authors trace changes outside the varied positions to PCR and sequencing errors or to mutation in the plant; presence does not show that a variant is infectious alone.
With 43,870-66,106 reads a sample, very low values are single reads.